Anti-infective test results gathered from many reports (values: NIAID ChemDB through PubChem).

Shared fields: growth or infection tests; species: Herpes simplex virus 1; cells: VERO; measure: EC50

An empty or dashed field is not shown. Rows are shuffled and stem from different studies. a–b is a range or a potency band. ECn: concentration that inhibits the pathogen or its effect by n%.

SMILES	strain	read by	result
C#Cc1c[nH]c(=O)[nH]c1=O	-	plaque count	>100 µM
COC(=O)[C@@H]1O[C@]12[C@@H](CO[Si](C)(C)C(C)(C)C)O[C@@H](n1ccc(=O)[nH]c1=O)[C@@H]2O[Si](C)(C)C(C)(C)C	-	plaque count	23 µM
CC(=O)OCCOCn1c(-c2ccccc2)c(Br)c(Br)c1-c1ccccc1	-	plaque count	>23 µM
O=c1[nH]c(=O)n([C@H]2C[C@H](O)[C@@H](CO)O2)cc1/C=C/Br	V3	plaque count	0.23 µM
O=[N+]([O-])c1cc(-c2ccccc2)n(COCCO)c1-c1ccccc1	-	plaque count	>46 µM
Nc1nccc2nn([C@@H]3O[C@H](CO)[C@@H](O)[C@H]3O)nc12	-	plaque count	>398 µM
O=c1[nH]c(=O)n([C@H]2C[C@H](O)[C@@H](CO)O2)cc1/C=C/Br	KOS-M1	plaque count	0.1 µM
Nc1nc(=O)n([C@@H]2O[C@H](CO)[C@@H](O)[C@@H]2F)cc1I	V3	plaque count	0.25 µM
CC/C=C/C/C=C/C/C=C/CCCCCCCC(=O)OC[C@H](CO[C@@H]1O[C@H](CO)[C@@H](O)[C@H](O)[C@H]1O)OC(=O)CCCCCCC/C=C/C/C=C/C/C=C/CC	KOS	plaque count	12.5 µg/mL
Nc1nc2c(ncn2CCCCO)c(=O)[nH]1	C42 (acyclovir-resistant)	plaque count	150 µM
Cc1cn([C@@H]2O[C@H](CO)[C@@H](O)[C@@H]2F)c(=O)[nH]c1=O	77	plaque count	0.65 µM
Cc1cn([C@@H]2O[C@H](CO[Si](C)(C)C(C)(C)C)C3(O[C@H]3C(N)=O)[C@H]2O[Si](C)(C)C(C)(C)C)c(=O)[nH]c1=O	-	plaque count	>2.7 µM
Cn1cc(C(=O)NCc2ccc(Cl)cc2)c(=O)c2cc(/C=C\CO)cc(F)c21	F	plaque count	2.5 µM
C#Cc1cnc(OC(=O)c2ccccc2)nc1OC(=O)c1ccccc1	-	plaque count	>100 µM
CCCCCCCCCCCCCCCCCC(=O)OCC(CO[C@@H]1O[C@H](CO)[C@@H](O)[C@H](O)[C@H]1O)OC(=O)CCCCCCCCCCCCCCCCC	KOS	plaque count	>50 µg/mL
Nc1nc2c(ncn2CC(CO)CCO)c(=O)[nH]1	C42	plaque count	0.5 µM
O=c1c2cccc(Cl)c2[nH]c2cc(O)cc(O)c12	-	-	19 µM
O=c1[nH]c(=O)n([C@@H]2O[C@H](CO)[C@@H](O)[C@@H]2F)cc1Cl	2931	plaque count	<10 µg/mL
O=Cc1cn([C@@H]2O[C@H](CO)[C@@H](O)[C@@H]2O)c(=O)[nH]c1=O	V3	plaque count	>1000 µM
Nc1nccc2c1nnn2[C@H]1CC[C@@H](CO)O1	-	plaque count	>387 µM
CCCCCCCCCCCCCCCCCCCCCC(=O)OCC(CO[C@@H]1O[C@H](CO)[C@@H](O)[C@H](O)[C@H]1O)OC(=O)CCCCCCCCCCCCC	KOS	plaque count	>50 µg/mL
O=c1[nH]c(=O)n([C@@H]2O[C@H](CO)[C@@H](O)[C@@H]2O)cc1/C=C/Br	77	plaque count	3.8 µM
Nc1nc(Cl)c2c(ncn2[C@@H]2O[C@H](CO)[C@@H](O)[C@H]2O)n1	HF	cytopathic effect	10 µg/mL
NC1=NC2C(C=CN2CC(CO)CCO)C(=O)N1	KOS	cytopathic effect	3.3 µg/mL
O=C(Nc1ccc(NC(=S)NCCc2cc3ccccc3o2)cc1)c1cc2ccccc2o1	-	ELISA	>10 µg/mL
CC[C@@]1(O)C[C@H](O[C@H]2C[C@H](N(C)C)[C@H](O[C@H]3C[C@H](O)[C@H](O[C@H]4CCC(=O)[C@H](C)O4)[C@H](C)O3)[C@H](C)O2)c2c(cc3c(c2O)C(=O)c2c(O)cccc2C3=O)[C@H]1C(=O)OC	-	-	0.25–5 µM
OC[C@H]1O[C@@H](n2nnc3ccnc(Cl)c32)[C@H](O)[C@@H]1O	-	plaque count	>370 µM
CC(C)(C)[Si](C)(C)OC[C@H]1O[C@@H](n2ccc(=O)[nH]c2=O)[C@H](O[Si](C)(C)C(C)(C)C)[C@]12O[C@@H]2CO	-	plaque count	20 µM
Nc1ccn([C@@H]2O[C@H](CO)[C@@H](O)[C@@H]2O)c(=O)n1	2931	plaque count	<1 µg/mL
CC(=O)OCCOCn1c(-c2ccccc2)c(C#N)c([N+](=O)[O-])c1-c1ccccc1	-	plaque count	>300 µM
Cc1ccc2[nH]c3cc(O)cc(O)c3c(=O)c2c1	-	-	13 µM
CC1(C)C=C2[C@H]3CC[C@@H]4[C@@]5(C)CCC(=O)C(C)(C)[C@@H]5CC[C@@]4(C)[C@]3(C)CC[C@@]2(C(=O)O)CC1	7401H (phosphonoacetic acid-resistant)	plaque count	1.6 µg/mL
O=c1[nH]c(=O)n([C@@H]2C[C@H](CO)[C@@H](O)C2)cc1Br	377	cytopathic effect	0.3 µg/mL
CC1(C)C(OC2O[C@H](C(=O)O)[C@@H](O)[C@H](N[C@@H]3O[C@H](CO)[C@H](O)[C@H](O)[C@H]3O)[C@H]2OC2O[C@H](O)[C@@H](O)[C@H](O)[C@H]2C(=O)O)CC[C@@]2(C)C1CC[C@]1(C)C2C(=O)C=C2C3C[C@@](C)(C(=O)O)CC[C@]3(C)CC[C@]21C	-	cytopathic effect	16 µg/mL
Cc1cn([C@@H]2O[C@H](CO[Si](C)(C)C(C)(C)C)C3(O[C@H]3C(=O)NN)[C@H]2O[Si](C)(C)C(C)(C)C)c(=O)[nH]c1=O	-	plaque count	>5.5 µM
CCOC(=O)c1c(Cl)c(-c2ccccc2)n(COCCOC(C)=O)c1C	-	plaque count	>200 µM
Cc1cn([C@@H]2O[C@H](CO[Si](C)(C)C(C)(C)C)C3(O[C@H]3C(=O)NO)[C@H]2O[Si](C)(C)C(C)(C)C)c(=O)[nH]c1=O	-	plaque count	>3 µM
Nc1ccn([C@@H]2C[C@H](CO)[C@@H](O)[C@@H]2O)c(=O)n1	377	cytopathic effect	<32 µg/mL
O=c1[nH]c(=O)n([C@@H]2O[C@H](CO)[C@@H](O)[C@@H]2O)cc1I	2931	plaque count	<10 µg/mL
NC(=O)CCN(CCC(N)=O)S(=O)(=O)c1cccc(Nc2nc(Nc3cccc(S(=O)(=O)N(CCC(N)=O)CCC(N)=O)c3)nc(Nc3ccc(Nc4ccc(-c5ccc(Nc6ccc(Nc7nc(Nc8cccc(S(=O)(=O)N(CCC(N)=O)CCC(N)=O)c8)nc(Nc8cccc(S(=O)(=O)N(CCC(N)=O)CCC(N)=O)c8)n7)cc6S(=O)(=O)[O-])cc5CO)c(CO)c4)c(S(=O)(=O)[O-])c3)n2)c1	Patton	ELISA	>25 µM
CCOC(=O)c1c(Br)c(-c2ccccc2)n(COCCO)c1-c1ccccc1	-	plaque count	>64 µM
C=C(C)C(O)Cc1c(O)c(C(C)=O)c(O)c(C(=O)CC(C)C)c1O	-	cytopathic effect	0.3 µM
O=c1ccn([C@@H]2O[C@H](CO)[C@@H](O)[C@H]2O)c(=O)[nH]1	77	plaque count	>1000 µM
OC[C@H]1O[C@@H](n2nnc3c(Cl)nccc32)[C@H](O)[C@@H]1O	-	plaque count	>370 µM
Nc1nc(=O)n([C@H]2C[C@H](O)[C@@H](CO)O2)cc1I	2931	plaque count	<1 µg/mL
CCOC(=O)c1c([N+](=O)[O-])c(-c2ccccc2)n(COCCOC(C)=O)c1C	-	plaque count	>169 µM
Nc1nc2c(ncn2C/C=C\CO)c(=O)[nH]1	C42 (acyclovir-resistant)	plaque count	150 µM
O=c1ccn([C@@H]2O[C@H](CO)[C@@H](O)[C@@H]2F)c(=O)[nH]1	2931	plaque count	<10 µg/mL
CCCCCCCCCCCCCCCCCCCCCC(=O)OCC(CO[C@@H]1O[C@H](CO)[C@@H](O)[C@H](O)[C@H]1O)OC(=O)CCCCCCCCCCCCCCCCCCCCC	KOS	plaque count	>50 µg/mL
Nc1nc(=O)n([C@@H]2O[C@H](CO)[C@@H](O)[C@@H]2O)cc1I	2931	plaque count	<1 µg/mL
C#Cc1cnc(C(C)=O)nc1C(C)=O	-	plaque count	>100 µM
Cn1cc(C(=O)NCc2ccc(Cl)cc2)c(=O)c2cc(CN3CCOCC3)ccc21	DJL-M1	plaque count	>20 µM
Nc1nc(N)c2c(ncn2[C@@H]2O[C@H](CO)[C@@H](O)[C@@H]2O)n1	HF	cytopathic effect	205 µg/mL
CCOC(=O)c1c([N+](=O)[O-])c(-c2ccccc2)n(COCCO)c1C	-	plaque count	>300 µM
Cc1cc(O)c2c(=O)c3cccc(Cl)c3[nH]c2c1	KOS	plaque count	>100 µM
Nc1nccc2c1ncn2[C@H]1CC[C@@H](CO)O1	-	plaque count	>429 µM
CCCCCCCC/C=C\CCCCCCCC(=O)OC(COC(=O)CCCCCCCCCCCCCCCCCCCCC)CO[C@@H]1O[C@H](CO)[C@@H](O)[C@H](O)[C@H]1O	KOS	plaque count	>50 µg/mL
C=Cc1cn(OCCO)c(=O)[nH]c1=O	KOS (TK+)	plaque count	>25 µg/mL
CN(C)c1cccc(CCNC(=S)Nc2ccc(NC(=O)c3ccccc3F)cc2)c1C(F)(F)F	-	ELISA	>10 µg/mL
Nc1nc(=O)n([C@@H]2O[C@H](CO)[C@@H](O)[C@@H]2F)cc1Cl	2931	plaque count	<10 µg/mL
COc1ncc(I)c(OC)n1	-	plaque count	>100 µM
Nc1nc2c(ncn2COCCO)c(=O)[nH]1	TK-	plaque count	>40 µg/mL
CC(C)(C)[Si](C)(C)OC[C@H]1O[C@@H](n2ccc(=O)[nH]c2=O)[C@H](O[Si](C)(C)C(C)(C)C)[C@@]12O[C@H]2C(=O)NO	-	plaque count	27 µM
O=c1[nH]c(=O)n([C@@H]2O[C@H](CO)[C@@H](O)[C@@H]2F)cc1Br	2931	plaque count	<1 µg/mL
Nc1nc2c(ncn2CC[C@@H](O)CO)c(=O)[nH]1	C42 (acyclovir-resistant)	plaque count	230 µM
Cc1cn([C@@H]2O[C@H](CO)[C@@H](O)[C@@H]2O)c(=O)[nH]c1=O	V3	plaque count	57 µM